# Values joined by “and” are separate entries in the source; they are usually repeats but may differ in a detail not shown here. Equal entries are not always repeated. Only a part is listed here, and it is no random draw. Inconclusive results are not listed. Active and inactive are the calls of the source. Calls follow the shape of the dose curve; as a rule, active = well fitted inhibition curve with a large enough effect; inconclusive = small, poorly fitted or top-dose-only effect, or effect the other way; inactive = flat fitted curve, though single readings scatter.
# The chains behind the UniProt entries cited, without tags or fusion partners. Residues count along the entry.
# UniProt P25779, 123-467 limits assumed: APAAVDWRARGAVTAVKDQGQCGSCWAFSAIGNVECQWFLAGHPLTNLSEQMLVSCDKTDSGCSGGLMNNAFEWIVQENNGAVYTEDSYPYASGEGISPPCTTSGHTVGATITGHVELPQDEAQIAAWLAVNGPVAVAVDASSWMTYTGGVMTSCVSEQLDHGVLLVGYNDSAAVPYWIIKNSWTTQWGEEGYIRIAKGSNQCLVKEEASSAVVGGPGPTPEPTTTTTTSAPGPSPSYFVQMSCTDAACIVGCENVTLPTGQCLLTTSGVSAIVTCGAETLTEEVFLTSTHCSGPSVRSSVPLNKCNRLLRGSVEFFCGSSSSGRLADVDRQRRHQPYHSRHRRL
# Target: Cruzipain (Trypanosoma cruzi) (UniProt P25779)
# Assay: qHTS Assay for Promiscuous and Specific Inhibitors of Cruzain (without detergent);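 also: plate controls were enzyme without inhibitor for no effect and buffer without enzyme for full effect; nearly all actives have a fitted effect of over 40% in size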
# Conditions: purified cruzain, Z-FR-AMC fluorescence, no detergent
row,Structure (SMILES),"max response, negative = inhibition"
1,C/C1=C2N=C(/C=C3N=C(/C(C)=C4\[N-][C@@](C)([C@H]5N=C1[C@@](C)(CCC(=O)NC[C@H](C)OP(=O)([O-])O[C@@H]1[C@H](O)[C@H](n6cnc7cc(C)c(C)cc76)O[C@@H]1CO)[C@@H]5CC(N)=O)[C@](C)(CC(N)=O)[C@H]4CCC(N)=O)[C@@](C)(CC(N)=O)[C@@H]\3CCC(N)=O)C(C)(C)[C@@H]/2CCC(N)=O.[C-]#N.[Co+3],inactive: -5.07%
2,CCOC(=O)c1ccc(NP(C)(=O)Oc2ccc(Cl)cc2)cc1 (centres undefined),inactive: 9.26%
3,CC(C)(C)c1ccc(OP(C)(=O)O)cc1,inactive: -13.3%
4,CP(=O)(Nc1ccc(Cl)cc1)Oc1ccc(F)cc1 (centres undefined),inactive: 2.13%
5,CN(C)C(=O)OCCc1n(C)cc[n+]1C,inactive: -10.6%
6,O=C(CO)Nc1ccc([As](=O)(O)O)cc1,inactive: 2.97%
7,CC(=O)C1=CCCC2CCC1N2 (centres undefined),inactive: -4.96%
8,COc1ccc(OP(C)(=O)Nc2ccc(Br)cc2)cc1 (centres undefined),inactive: 4.39%
9,CCN(CC)CC(O)COC(=O)C(O)(c1ccccc1)C1CCCCC1 (centres undefined),inactive: 3.54%
10,N#[O+].[C-]#N.[C-]#N.[C-]#N.[C-]#N.[C-]#N.[Fe+2].[Na+].[Na+],inactive: 1.88%
11,OCCSCCO,inactive: 6.32%
12,COc1ccccc1OP(C)(=O)Nc1c(C)n(C)n(-c2ccccc2)c1=O (centres undefined),inactive: -2.4%
13,O=[N+]([O-])c1cccc2n[nH]nc12,inactive: -6.89%
14,CC(=O)N1C2C3N(C(C)=O)C1C1N(C(C)=O)C(C(N1C(C)=O)N3C(C)=O)N2C(C)=O,inactive: 0.619%
15,CCc1nc2c(n1)c1c(non1O)c1c2no[n+]1[O-],inactive: -4.42%
16,CP(=O)(Oc1ccccc1)N1CCOC1=O (centres undefined),inactive: -7%
17,CC(C)CC(=O)NC(Sc1ccc(Cl)cc1)C(Cl)(Cl)Cl (centres undefined),inactive: 1.64%
18,Cc1c(NP(C)(=O)Oc2ccc(C(C)C)cc2)c(=O)n(-c2ccccc2)n1C (centres undefined),inactive: 6.64%
19,O=C(NC(Sc1ccncn1)C(Cl)(Cl)Cl)c1ccccc1 (centres undefined),inactive: 3%
20,Oc1ccccc1CNc1ccccn1,inactive: 9.27%
21,COc1ccccc1OP(C)(=O)Nc1ccc(C)cc1C (centres undefined),inactive: 7.14%
22,CP(=O)(Nc1ccccn1)Oc1ccccc1 (centres undefined),inactive: -10.3%
23,CCc1ccc(OP(C)(=O)O)cc1,inactive: 2.53%
24,NCC[C@@H](N)CSP(=O)(O)O,inactive: 6.2%
25,COc1ccc(OP(C)(=O)Nc2ccccn2)cc1 (centres undefined),inactive: 9.98%

row,Structure (SMILES),"max response, negative = inhibition"
1,O=[N+]([O-])c1ccc(C[As](=O)(O)O)cc1,inactive: 6.5%
2,CN(C)CCOC(=O)C(O)(c1ccccc1)C1CCCC1 (centres undefined),inactive: 1.79%
3,CN1CCCC(OC(=O)C(c2ccccc2)c2ccccc2)C1 (centres undefined),inactive: -2.85%
4,Cc1nc2ccc3ccccc3c2o1.O=[N+]([O-])c1cc([N+](=O)[O-])c(O)c([N+](=O)[O-])c1,inactive: -10.9%
5,[N-]=[N+]=NCC(O)CN=[N+]=[N-] (centres undefined),inactive: -8.18%
6,CCN(N=Nc1nonc1N)c1nonc1N,inactive: -1.66%
7,C(Cc1nn[nH]n1)c1nn[nH]n1,inactive: 9.91%
8,CN(C(=O)Cc1ccc(Cl)c(Cl)c1)[C@H]1CCCC[C@@H]1N1CCCC1,inactive: 2.99% [middle of 6 runs]
9,COc1ccccc1OP(C)(=O)Nc1ccc(C)c(C)c1 (centres undefined),inactive: 3.15%
10,CCOP(=O)(Nc1ccccc1)OCC,inactive: 0.588%
11,Cc1cc(SC(NC(=O)c2ccc(F)cc2)C(Cl)(Cl)Cl)ncn1 (centres undefined),inactive: -1.31%
12,COc1ccc(OP(C)(=O)Nc2ccccc2Br)cc1 (centres undefined),inactive: -1.69%
13,CC(=O)NC(SC(=S)N(CC(C)C)CC(C)C)C(Cl)(Cl)Cl (centres undefined),inactive: -3.27%
14,COC(=O)c1cc2c(s1)N=C(c1ccccc1)N(C)P2(=O)N1CCOCC1 (centres undefined),inactive: -7.97%
15,CCN(CC)CCCOC(=O)C(O)(c1ccccc1)C1CCCCC1 (centres undefined),inactive: -5.14%
16,CCC(=O)N1C2C3N(C(=O)CC)C1C1N(C(=O)CC)C(C(N1C(=O)CC)N3C(=O)CC)N2C(=O)CC,inactive: 3.42%
17,CN(C(=O)Cc1ccc(Cl)c(Cl)c1)[C@@H]1CCCC[C@@H]1N1CCCC1,inactive: -11.2%
18,CP(=O)(Nc1ccccc1)Oc1ccc(F)cc1 (centres undefined),inactive: -6.04%
19,CCOC(=O)NC(Sc1ccccc1)C(Cl)(Cl)Cl (centres undefined),inactive: 1.27%
20,Cc1cccc([N+](=O)[O-])c1[N+](=O)[O-],inactive: -3.21%
21,CCC(C)(OO)OOC(C)(CC)OO (centres undefined),inactive: 5.58%
22,CCOC(=O)c1ccc(NP(C)(=O)Oc2ccc(F)cc2)cc1 (centres undefined),inactive: 1.65%
23,O=C(OCCN1CCN(CCOCc2ccccc2)CC1)C(O)(c1ccccc1)c1ccccc1,inactive: 12.7%
24,O=P1(Nc2nc3ccc(Cl)cc3s2)COc2ccccc2O1 (centres undefined),inactive: -0.054%
25,CP(=O)(Nc1ccccc1F)Oc1ccccc1 (centres undefined),inactive: -6.94%

row,Structure (SMILES),"max response, negative = inhibition"
1,CC(C)c1ccc(OP(C)(=O)Nc2ccc(SC(F)(F)F)cc2)cc1 (centres undefined),inactive: 7.83%
2,CP(=O)(Nc1ccc2c(c1)OCCO2)Oc1ccccc1 (centres undefined),inactive: 1.03%
3,CN1CCC[C@H](OC(=O)C(c2ccccc2)c2ccccc2)C1,inactive: -0.458%
4,C[C@@H](O)COc1ccc([As](=O)(O)O)cc1N,inactive: 13.8%
5,[NH4+].[O-][Cl+3]([O-])([O-])[O-],inactive: -1.28%
6,CCN(CCCl)Cc1ccccc1C,inactive: -1.59%
7,Cc1ccccc1NP(C)(=O)Nc1ccccc1C,inactive: 5.04%
8,NNC(NN)NN.n1nc(-c2nn[nH]n2)n[nH]1,inactive: -11.4%
9,CC(C)C(=O)NC(Sc1ccccc1)C(Cl)(Cl)Cl (centres undefined),inactive: 7.06%
10,O=P(Nc1nccs1)(c1ccccc1)c1ccccc1,inactive: -9.71%
11,CCOP(C)(=S)SCC(=O)NC(C)(CC)C(=O)O (centres undefined),inactive: 2.49%
12,CCOP(=O)(CC)OCC,inactive: -4.64%
13,c1nnnn1CCn1cnnn1,inactive: 1.61%
14,CC(=O)NC(SC(=S)N(C)C)C(Cl)(Cl)Cl (centres undefined),inactive: -7.96%
15,Cc1ccc([N+](=O)[O-])c([N+](=O)[O-])c1,inactive: -2.06%
16,Cc1c([N+](=O)[O-])cccc1[N+](=O)[O-],inactive: -3.41%
17,C(Cc1nn[nH]n1)Cc1nn[nH]n1,inactive: 12.7%
18,O=C(OC1CN2CCC1CC2)c1cccc(Cl)c1 (centres undefined),inactive: 2.2%
19,COc1ccc(OP(C)(=O)Nc2cccc(Br)c2)cc1 (centres undefined),inactive: -1.84%
20,CN(C)CCOC(=O)C(O)(c1ccccc1)C1CCCCC1 (centres undefined),inactive: -5.67%
21,[N-]=[N+]=Nc1ccc([As](=O)(O)O)cc1,inactive: 8.49%
22,Cc1cc([N+](=O)[O-])cc([N+](=O)[O-])c1O,inactive: -17.6%
23,O=P1(Nc2ncccn2)COc2ccccc2OC1,inactive: -11.4%
24,COc1ccccc1OP(C)(=O)Nc1c(C)cccc1C (centres undefined),inactive: -2.45%
25,CN1CCCCC1COC(=O)C1(O)c2ccccc2CCc2ccccc21 (centres undefined),inactive: -12.3%

row,Structure (SMILES),"max response, negative = inhibition"
1,O=P1(Nc2ccc(Br)cn2)COc2ccccc2OC1,inactive: 1.39%
2,Cc1ccc(OCC(=O)OC2CN3CCC2CC3)cc1 (centres undefined),inactive: 2.39%
3,CP(=O)(Nc1ccc(SC(F)(F)F)cc1)Oc1ccccc1 (centres undefined),inactive: 12.7%
4,COc1cc(C2NCCC3(OCCO3)C2(C)C)cc(OC)c1OC.O=[N+]([O-])c1cc([N+](=O)[O-])c(O)c([N+](=O)[O-])c1 (centres undefined),inactive: -2.26%
5,Cc1nc2ccc3ccccc3c2s1.O=[N+]([O-])c1cc([N+](=O)[O-])c(O)c([N+](=O)[O-])c1,inactive: -10%
6,CN(C(=O)Cc1ccc(Cl)c(Cl)c1)[C@@H]1CCCC[C@H]1N1CCCC1,inactive: 9.31%
7,CN(CCCl)Cc1cc(Cl)c(NC2=NCCN2)c(Cl)c1,inactive: -2.93%
8,O=P1(Nc2ccccn2)COc2ccccc2OC1,inactive: 5.92%
9,Clc1n[nH]nc1-c1nn[nH][15n]1,inactive: -7.38%
10,Cc1ccc(C)c(NP(C)(=O)Oc2ccccc2)c1 (centres undefined),inactive: 0.685%
11,O=C(CC(=O)c1ccccc1)O[C@H]1CN2CCC1CC2,inactive: 0.583%
12,NS(=O)(=O)Cc1ccc([As](=O)(O)O)cc1,inactive: -3.78%
13,Cc1cc(C)cc(OP(C)(=O)Nc2ccccn2)c1 (centres undefined),inactive: -1.09%
14,CCOP(=O)(Nc1cccc2ccccc12)OCC,inactive: -1.66%
15,CN(C(=O)Cc1ccc(Cl)c(Cl)c1)[C@@H]1CC[C@]2(CCCO2)C[C@H]1N1CCCC1,inactive: 12.9%
16,CCOC(=O)c1ccc(NP(C)(=O)Oc2cc(C)cc(C)c2)cc1 (centres undefined),inactive: 17%
17,Cc1cc(C)cc(OP(C)(=O)Nc2ccc(C)cc2C)c1 (centres undefined),inactive: 1.88%
18,Cc1cccc(OCC(=O)OC2CN3CCC2CC3)c1 (centres undefined),inactive: -1.25%
19,O=[N+]([O-])CC(O)c1ccc([N+](=O)[O-])cc1 (centres undefined),inactive: 7.48%
20,NC(=O)Nc1ccc([As](=O)(O)O)cc1,inactive: 5.2% and inactive: -3.17%
21,CC1=NCCc2c1[nH]c1ccccc21.O=[N+]([O-])c1cc([N+](=O)[O-])c(O)c([N+](=O)[O-])c1,inactive: 6.71%
22,O=[N+]([O-])c1ccc2c(c1)nnn2O,inactive: 5.91%
23,CN(C(=O)Cc1ccccc1)[C@@H]1CC[C@]2(CCCO2)C[C@H]1N1CCCC1,inactive: 14.7%
24,CCOP1(=S)c2c(C)nn(CCC#N)c2N=C(c2ccc(F)cc2)N1C (centres undefined),inactive: 27.3%

# Source: PubChem BioAssay AID1476 (National Center for Advancing Translational Sciences (NCATS), 2009)
